We go through 1 compound from PMC11998009, “Identification of a New FtsZ Inhibitor by Virtual Screening, Mechanistic Insights, and Structure–Activity Relationship Analyses” (ACS Infectious Diseases, 2025).

Protein sequences, listed by entry. Tags and fused reporters are not part of them.
UniProt P0A031, whole entry: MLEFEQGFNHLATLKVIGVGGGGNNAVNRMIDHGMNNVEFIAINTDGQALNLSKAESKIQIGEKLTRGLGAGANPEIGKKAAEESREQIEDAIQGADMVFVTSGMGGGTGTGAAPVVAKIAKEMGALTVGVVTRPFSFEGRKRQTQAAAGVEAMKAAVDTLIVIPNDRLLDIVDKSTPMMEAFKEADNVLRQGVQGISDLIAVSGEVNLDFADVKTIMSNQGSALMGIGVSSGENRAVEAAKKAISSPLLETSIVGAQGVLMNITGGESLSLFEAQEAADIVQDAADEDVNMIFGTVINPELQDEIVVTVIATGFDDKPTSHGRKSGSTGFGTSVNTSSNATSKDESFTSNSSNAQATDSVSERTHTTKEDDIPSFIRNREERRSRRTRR

As a reminder, the IC50 is the concentration at which inhibition is half-maximal.

The subject of experiment [1] is S. aureus ATCC25923. Briefly: MIC determination by 2-fold microdilution, resazurin method. In kind it is cell-based, Staphylococcus aureus. The settings on record: S. aureus ATCC25923, single drug. For orientation: Dilution methods test growth across graded concentrations, often in twofold steps.
Experiment [2] concerns the target S. aureus FtsZ protein (FtsZSa) (Staphylococcus aureus, UniProt P0A031). Briefly: In vitro FtsZ GTPase activity (PK/LDH coupled assay). The settings on record: read-out: IC50 (GTPase activity). It counts as biochemical.

The match of structure and compound is tentative. A value given as a limit tells only on which side of the number the result lay.

Regarding `Cn1cccc1-c1noc(CNC(=O)c2ccc(=O)[nH]c2)n1`, the “MIC S. aureus” value in experiment [1] is at least 256 µg/mL. The concentration for half-maximal inhibition (IC50) in experiment [2] came to 14.6 µM.
